Test results taken from patent US10941121B2 (AZIENDA OSPEDALIERA UNIVERSITARIA SENESE, priority 2015, dated 2021).

system: HIV (PBMC); test: HIV infectious cell culture system in PBMC, HIV-1 RNA in supernatant; conditions: selectivity index, CC50 PBMC 72 h / EC50 HIV

Compound | SI (HIV/PBMC)
CCCCn1nnc(-c2ccc(NC(=O)Nc3ccccc3C)cc2)n1 [Compound 49, 1-(4-(2-butyl-2H-tetrazol-5-yl)phenyl)-3-(o-tolyl)urea] | >100
CCCCc1cn(-c2ccc(NC(=O)Nc3ccccc3C)cc2)nn1 [Compound 20a, 1-(4-(4-butyl-1H-1,2,3-triazol-1-yl)phenyl)-3-o-tolylurea] | >33
CCOCc1cn(-c2cccc(S(=O)(=O)Nc3ccccc3C(F)(F)F)c2)nn1 [Compound 66d, 3-(4-(ethoxymethyl)-1H-1,2,3-triazol-1-yl)-N-(2-(trifluoromethyl)phenyl) benzenesulfonamide] | 27
Cc1ccccc1NC(=O)Nc1cccc([N+](=O)[O-])c1 [EI01D, reference compound] | 10
CCCCc1cn(-c2cccc(S(=O)(=O)Nc3ccccc3C(F)(F)F)c2)nn1 [Compound 64d, 3-(4-butyl-1H-1,2,3-triazol-1-yl)-N-(2-(trifluoromethyl)phenyl)benzenesulfonamide] | 6.3
